Anti-infective test results gathered from many reports (values: NIAID ChemDB through PubChem).

Shared fields: host cell toxicity; cell line: CEM; read-out: CC50

Rows are shuffled and stem from different studies. Blank or dashed fields: not listed here. CCn is the concentration with n% toxicity to the cells.

compound,read by,result
Cc1ccnc2c1N(CN1CCN(c3ccc([N+](=O)[O-])cc3)CC1)C(=O)c1cccnc1N2C1CC1,XTT,>200 µM
Cc1cc(S(=O)(=O)Nc2nnc3c(Cl)cc(C(F)(F)F)cn23)c(S)cc1Cl,-,120 µM
C=C(COCP(=O)(O)O)C(C)n1cnc2c(=O)[nH]c(N)nc21,-,98 µM
N#Cc1c(N)nc(N)nc1OCCOCP(=O)(O)O,-,≥300 µM
Nc1ccccc1C(=O)NNC(=O)c1ccccc1N,-,>200 µM
CCOC(=O)N[C@H](C(=O)N[C@@H](Cc1ccccc1)[C@@H](O)C[C@H](Cc1ccccc1)NC(=O)c1ccccc1NC(=O)OCc1ccccn1)C(C)C,-,>0.007 µM
C1CNCCNCCCN[C@H]([C@@H]2CNCCCNCCNCCCN2)CNC1,-,>724 µM
COc1ccc(/C=C2/C(=O)N(C(=O)c3ccc(Cl)cc3)N=C2C)cc1OC,-,>35 µM
CCCCCCCCCCCC(=O)NCC(COP(=O)([O-])OCC[N+](C)(C)C)OCCCCCC,-,40.2 µM
C[C@H](Cn1cnc2c(N)ncnc21)OCP(=O)(O)O,-,410 µM
Cc1ccnc2c1N(CN1CCN(C)CC1)C(=O)c1cccnc1N2C1CC1,XTT,>200 µM
Cc1cc(S(=O)(=O)Nc2n[nH]c(N)n2)c(SCC(=O)O)cc1Cl,-,>200 µM
O=C(Nc1ccccc1C(=O)N[C@@H](Cc1ccccc1)C[C@H](O)[C@H](Cc1ccccc1)NC(=O)c1cscn1)OCc1ccccn1,-,>3 µM
COC(=O)C[C@@H](NP(=O)(OC[C@H]1C=C[C@@H](n2cnc3c(N)ncnc32)C1)Oc1ccccc1)C(=O)OC,trypan blue,≥250 µM
Cc1ccnc2c1N(CN1CCN(c3cccc(Cl)c3)CC1)C(=O)c1cccnc1N2C1CC1,XTT,>200 µM
C1CNCCNCCCN(CCCN2CCCNCCNCCCNCC2)CCNC1,-,>1243 µM
Nc1nc(N)c(C=O)c(OCCOCP(=O)(O)O)n1,-,≥300 µM
Nc1ncnc2c1ncn2CCOCP(=O)(O)O,MTT,45 µM
Cc1ccnc2c1N(CN1CCN(Cc3ccccc3)CC1)C(=O)c1cccnc1N2C1CC1,XTT,>200 µM
CC(C)[C@H](NC(=O)N(C)Cc1ccccn1)C(=O)N[C@@H](Cc1ccccc1)[C@H](O)[C@H](O)[C@H](Cc1ccccc1)NC(=O)[C@@H](NC(=O)N(C)Cc1ccccn1)C(C)C,-,>100 µM
O=C(NN1C(=O)C(Cl)C1c1cccc(Cl)c1)c1ccccc1O,-,>74 µM
Nc1nc2c(ncn2[C@H]2C=C[C@@H](CO)C2)c(=O)[nH]1,-,60.5 µg/mL
CC1=NN(C(=O)c2ccccc2O)C(=O)/C1=C/c1ccc(O)cc1,-,0.059 µM
CCCCCCCCCCCC(=O)NCC(COP(=O)([O-])OCC[N+](C)(C)C)OCCCCCCCC,-,56.8 µM
Cc1cc2nc3nc(N)nc(NS(=O)(=O)c4cc(C)c(Cl)cc4S)n3c2cc1C,-,>200 µM
Nc1nc2c(ncn2COC(CO)CO)c(=O)[nH]1,-,>10 µM
C=C(C)[C@@H]1CC[C@]2(C(=O)NCCCCCCCC(=O)N[C@@H](CC(C)C)[C@H](O)CC(=O)O)CC[C@]3(C)[C@H](CC[C@@H]4[C@@]5(C)CC[C@H](O)C(C)(C)[C@@H]5CC[C@]43C)[C@@H]12,-,>5 µM
Cc1cn(C(C)C2(COCP(=O)(O)O)CC2)c(=O)[nH]c1=O,-,99 µM
CCN(c1ccccc1)c1nc(N)nc(NS(=O)(=O)c2cc(C)c(Cl)cc2S)n1,-,>200 µM
Cc1ccnc2c1N(CN1CCN(c3ccccc3)CC1)C(=O)c1cccnc1N2C1CC1,XTT,>200 µM
Cc1c(N)cccc1C(=O)N[C@@H](Cc1ccccc1)[C@@H](O)C[C@H](Cc1ccccc1)NC(=O)c1ccccc1NC(=O)OCc1ccccn1,-,>0.06 µM
Cc1cn([C@H]2C[C@H](N=[N+]=[N-])[C@@H](CO)O2)c(=O)[nH]c1=O,-,0.5 µM
OC[C@H]1O[C@@H](n2c(=S)[nH]c3cc(Cl)c(Cl)cc32)[C@H](O)[C@@H]1O,-,>100 µM
CC(=O)Oc1ccc(S)c(S(=O)(=O)Nc2n[nH]c(N)n2)c1,-,>200 µM
OC[C@H]1O[C@@H](Sc2nc3cc(Cl)c(Cl)cc3[nH]2)C(O)C1O,-,>100 µM
O=c1[nH]cnc2c1ncn2[C@H]1CC[C@@H](CO)O1,-,945 µM
Cc1cc(S(=O)(=O)/N=C(\NN)Nc2ccc(Cl)cc2)c(S)cc1Cl,-,10 µM
CCCCCCCCCCCCCCCCCC(=O)NCC(COP(=O)([O-])OCC[N+](C)(C)C)OCCCCCCCC,-,36 µM
Cc1c(O)cccc1C(=O)N[C@@H](Cc1ccccc1)[C@@H](O)C[C@H](Cc1ccccc1)NC(=O)c1ccccc1NC(=O)OCc1ccccn1,-,>0.03 µM
Cc1cc(S(=O)(=O)NC2=NCCCN2)c(S)cc1Cl,-,67.9 µM
CCCCCCCCCCOC(CNC(=O)CCCCCCCCC)COP(=O)([O-])OCC[N+](C)(C)C,-,80.5 µM
Nc1ncnc2c1ncn2[C@H]1OC[C@@](F)(C=CP(=O)(O)O)[C@H]1F,MTT,>100 µM
O=C(Nc1ccccc1C(=O)N[C@@H](Cc1ccccc1)C[C@H](O)[C@H](Cc1ccccc1)NC(=O)OC1CCOC1)OCc1ccccn1,-,>0.03 µM
OC[C@@H]1O[C@H](n2c(=S)n([C@@H]3O[C@H](CO)[C@@H](O)[C@H]3O)c3cc(Cl)c(Cl)cc32)[C@@H](O)[C@H]1O,-,>100 µM
CC1=NN(c2nc(N)nc(CSc3cc(Cl)c(C)cc3S(N)(=O)=O)n2)C(C)(C)C1,-,75.3 µM

For reference, 6 entries again:

Nc1ncnc2c1ncn2[C@H]1OC[C@@](F)(C=CP(=O)(O)O)[C@H]1F ; read by: MTT ; result: >100 µM
CCCCCCCCCCCC(=O)NCC(COP(=O)([O-])OCC[N+](C)(C)C)OCCCCCCCC ; result: 56.8 µM
CCCCCCCCCCCCCCCCCC(=O)NCC(COP(=O)([O-])OCC[N+](C)(C)C)OCCCCCCCC ; result: 36 µM
CC1=NN(c2nc(N)nc(CSc3cc(Cl)c(C)cc3S(N)(=O)=O)n2)C(C)(C)C1 ; result: 75.3 µM
Nc1nc(N)c(C=O)c(OCCOCP(=O)(O)O)n1 ; result: ≥300 µM
Cc1cc2nc3nc(N)nc(NS(=O)(=O)c4cc(C)c(Cl)cc4S)n3c2cc1C ; result: >200 µM